PubChem BioAssay AID624099 | ICCB-Longwood, 2012

Screen: 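Human genes that papillomavirus E2 requires to repress the HPV18 LCR promoter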 (primary screen)
Cells: human C33A cervical carcinoma cells (HPV-negative) stably expressing BPV1 E2 and an HPV18 LCR luciferase reporter
Knock-down reagent: siRNA pool against human genes, 40 nM
Duration: 72 h
Measured: 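HPV18 LCR reporter light per well, converted to plate-wise z-scores that exclude control wells, and averaged over triplicate plates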
Scale: mean z-score and z-score: higher = stronger reporter signal, weaker E2 silencing
Rule for the call: 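Hit if mean z-score reaches 2 and two or more of three replicate z-scores also reach 2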
This is a random part of about 21,000 deposited reagents. 497 of them (2.4%) count as active. 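Higher z means weaker E2 silencing; only reporter increases were scored, and knock-downs that hurt cell survival may mask genuine repressor factors.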

| Gene | mean z-score | z-score, replicate A | z-score, replicate B | z-score, replicate C | call |
| --- | --- | --- | --- | --- | --- |
| CBR4 (carbonyl reductase 4) | -0.65 | -0.74 | -0.81 | -0.39 | inactive |
| CAND1 (cullin associated and neddylation dissociated 1) | 0.41 | 0.24 | 0.39 | 0.6 | inactive |
| METTL18 (methyltransferase 18, RPL3 N3(tau)-histidine) | 0.12 | 0.04 | 0.1 | 0.21 | inactive |
| IQCF2 (IQ motif containing F2) | -0.92 | -0.64 | -1.26 | -0.86 | inactive |
| RPL32 (ribosomal protein L32) | -3.22 | -3.45 | -3.16 | -3.06 | inactive |
| C5orf63 (chromosome 5 open reading frame 63) | 0.47 | 0.3 | 0.57 | 0.55 | inactive |
| PLCXD2 | -1.25 | -1.16 | -1.44 | -1.15 | inactive |
| SLC9A6 | 0.61 | 0.47 | 0.61 | 0.74 | inactive |
| PNLIPRP3 (pancreatic lipase related protein 3) | 0.9 | 1.42 | 0.56 | 0.71 | inactive |
| MYO1A (myosin IA) | 0.6 | 0.75 | 0.48 | 0.56 | inactive |
| CLIP2 (CAP-Gly domain containing linker protein 2) | 0.26 | 0.29 | 0.23 | 0.26 | inactive |
| NRK (Nik related kinase) | -0.02 | -0.26 | -0.16 | 0.36 | inactive |
| NQO1 (NAD(P)H quinone dehydrogenase 1) | 0.6 | 0.3 | 0.6 | 0.91 | inactive |
| SLITRK3 (SLIT and NTRK like family member 3) | -0.02 | 0.01 | 0.11 | -0.17 | inactive |
| ZNF267 (zinc finger protein 267) | -1.63 | -1.74 | -1.58 | -1.58 | inactive |
| PLEKHG2 (pleckstrin homology and RhoGEF domain containing G2) | 0.12 | 0 | 0.2 | 0.16 | inactive |
| TUBGCP6 (tubulin gamma complex component 6) | -0.33 | -0.29 | -0.36 | -0.34 | inactive |
| LOC441081 (POM121 membrane glycoprotein (rat) pseudogene) | 0.05 | -0.08 | 0.27 | -0.03 | inactive |
| DENND1C (DENN domain containing 1C) | -1.04 | -1 | -1.28 | -0.83 | inactive |
| GFUS (GDP-L-fucose synthase) | 0.07 | -0.21 | -0.01 | 0.42 | inactive |
| LINC01085 (long independently transcribed non-coding RNA 1085) | -0.67 | -0.89 | -0.52 | -0.6 | inactive |
| INHBA (inhibin subunit beta A) | -0.41 | -0.39 | -0.26 | -0.57 | inactive |
| ARMH1 (armadillo like helical domain containing 1) | -0.8 | -0.25 | -1.09 | -1.07 | inactive |
| LOC389331 (retired record) | -0.19 | -0.49 | -0.09 | 0.02 | inactive |
| CWH43 (cell wall biogenesis 43 C-terminal homolog) | 0.31 | 0.59 | 0.26 | 0.09 | inactive |
| KRT8P41 (keratin 8 pseudogene 41) | 0.15 | -0.22 | 0.51 | 0.15 | inactive |
| MYLIP (myosin regulatory light chain interacting protein) | 0.66 | 1.09 | 0.62 | 0.28 | inactive |
| ORC3 (origin recognition complex subunit 3) | 1.15 | 0.76 | 1.35 | 1.34 | inactive |
| HMG20A (high mobility group 20A) | -0.76 | -0.73 | -1.08 | -0.48 | inactive |
| POMT1 (protein O-mannosyltransferase 1) | -0.77 | -0.94 | -0.6 | -0.78 | inactive |
| VTI1B (vesicle transport through interaction with t-SNAREs 1B) | 1.23 | 1.31 | 1.26 | 1.12 | inactive |
| CDC40 (cell division cycle 40) | 2.98 | 3.22 | 2.95 | 2.77 | active |
| LOC387789 (retired record) | 0.09 | 0.39 | 0.07 | -0.2 | inactive |
| ATG2A (autophagy related 2A) | 1.02 | 1.04 | 1.15 | 0.89 | inactive |
| CHRM5 (cholinergic receptor muscarinic 5) | 0.28 | 0.23 | 0.29 | 0.33 | inactive |
| BMPER (BMP binding endothelial regulator) | -0.76 | -0.95 | -0.5 | -0.84 | inactive |
| PSEN2 (presenilin 2) | 0.95 | 0.92 | 0.93 | 0.99 | inactive |
| GTF3C3 (general transcription factor IIIC subunit 3) | -0.5 | -0.56 | -0.4 | -0.55 | inactive |
| ADSS2 (adenylosuccinate synthase 2) | -0.21 | 0 | -0.33 | -0.31 | inactive |
| CCL13 (C-C motif chemokine ligand 13) | -0.24 | -0.38 | -0.35 | 0 | inactive |
| CGGBP1 (CGG triplet repeat binding protein 1) | -0.75 | -1.27 | -0.47 | -0.51 | inactive |
| PRKRIP1 (PRKR interacting protein 1) | -0.04 | -0.18 | -0.1 | 0.16 | inactive |
| EIF3D (eukaryotic translation initiation factor 3 subunit D) | -2.87 | -2.71 | -2.93 | -2.98 | inactive |
| TECPR2 (tectonin beta-propeller repeat containing 2) | 0.56 | 0.44 | 0.35 | 0.88 | inactive |
| IDH1 (isocitrate dehydrogenase (NADP(+)) 1) | -0.06 | -0.01 | 0.09 | -0.26 | inactive |
| FGF2 (fibroblast growth factor 2) | 1.94 | 2.17 | 1.76 | 1.87 | inactive |
| ORMDL3 (ORMDL sphingolipid biosynthesis regulator 3) | -0.48 | -0.57 | -0.79 | -0.07 | inactive |
| MAPKAPK5-AS1 (MAPKAPK5 antisense RNA 1) | 0.28 | 0.02 | 0.35 | 0.47 | inactive |
| TRIM77 (tripartite motif containing 77) | -0.81 | -0.77 | -1.01 | -0.65 | inactive |
| LOC341098 (retired record) | 0.25 | 0.04 | 0.55 | 0.15 | inactive |
| ASAP2 (ArfGAP with SH3 domain, ankyrin repeat and PH domain 2) | -0.19 | -0.21 | -0.01 | -0.35 | inactive |
| LOC402245 (retired record) | 0.14 | 0.01 | 0.23 | 0.18 | inactive |
| EML1 (EMAP like 1) | 0.54 | 0.44 | 0.57 | 0.62 | inactive |
| CSE1L (chromosome segregation 1 like) | 1.16 | 0.92 | 1.39 | 1.16 | inactive |
| LINC01343 (long independently transcribed non-coding RNA 1343) | -0.63 | -0.96 | -0.56 | -0.37 | inactive |
| PXT1 (peroxisomal testis enriched protein 1) | 1.49 | 1.46 | 1.52 | 1.13 | inactive |
| LACTB2 (lactamase beta 2) | 0.62 | 0.14 | 0.75 | 0.97 | inactive |

A few values from the list.
Under “z-score, replicate C”, ASAP2 (ArfGAP with SH3 domain, ankyrin repeat and PH domain 2) reads -0.35
For “mean z-score”, CDC40 (cell division cycle 40) reads 2.98
KRT8P41 (keratin 8 pseudogene 41), z-score, replicate C: 0.15
TECPR2 (tectonin beta-propeller repeat containing 2), z-score, replicate B = 0.35
NRK (Nik related kinase), z-score, replicate C: 0.36
For “mean z-score”, LINC01085 (long independently transcribed non-coding RNA 1085) reads -0.67
